Pooled drug test results. Numbers come from NIAID ChemDB, via PubChem.

Common to all: growth or infection tests; agent: HIV-2; read-out: EC50

Neighbouring rows are from separate reports. ECn is the concentration giving n% inhibition of infection, replication or growth. An empty or dashed field is not shown.

compound	method	strain	cells	result
Cc1cn([C@@H]2OC3CN[C@@]4(OCC(C)C)CS(=O)(=O)O[C@@]34[C@H]2O[Si](C)(C)C(C)(C)C)c(=O)[nH]c1=O	-	ROD	CEM	>10 µM
COc1cc(C)cc2c(-c3c(O)cc(O)c4c3C[C@H](C)N[C@H]4C)cc(-c3cc(-c4c(O)cc(O)c5c4C[C@H](C)N[C@H]5C)c4cc(C)cc(OC)c4c3O)c(O)c12	cytopathic effect / XTT	CBL-20	CEM + CEM-SS	2 µM
Cc1cn([C@@H]2O[C@@H]3CN[C@@]4(C#N)CS(=O)(=O)O[C@@]34[C@H]2O)c(=O)[nH]c1=O	-	ROD	CEM	>250 µM
O=c1[nH]cnc2c1ncn2[C@H]1C[C@@H](OCP(=O)(O)O)CO1	MTT / absorbance	ROD	MT-4	>395 µM
Cc1cn([C@@H]2O[C@@H]3CN[C@@]4(O[Si](C)(C)C(C)(C)C)CS(=O)(=O)O[C@@]34[C@H]2O[Si](C)(C)C(C)(C)C)c(=O)[nH]c1=O	-	ROD	MT-4	>2 µM
COC(=O)CNP(=O)(OC[C@@H]1C=C[C@H](n2cc(C)c(=O)[nH]c2=O)O1)Oc1ccccc1	cytopathic effect / trypan blue	ROD	CEM + CEM TK-	7 µM
N#CC1=CN(COCc2ccccc2)S(=O)(=O)N=C1N	cytopathic effect / MTT	-	MT-4	>400 µg/mL
Cc1cn([C@@H]2O[C@H](CO)[C@@H](O)[C@@H]2O)c(=O)n(C)c1=O	microscopy	ROD	CEM	>400 µg/mL
Nc1ncnc2c1ccn2/C=C/[C@H](CO)OCP(=O)(O)O	MTT / absorbance	ROD	MT-4	>398 µM
O=C1c2ccccc2N(Cc2ccc(Cl)cc2)S(=O)(=O)N1Cc1ccc(Cl)cc1	p24	ROD	MT-4	>125 µM
Cc1cn([C@@H]2O[C@@H]3CN[C@@]4(C#N)CS(=O)(=O)O[C@@]34[C@H]2O[Si](C)(C)C(C)(C)C)c(=O)[nH]c1=O	-	ROD	MT-4	>50 µM
Cc1cn([C@H]2C=C[C@@H](CO)O2)c(=O)[nH]c1=O	cytopathic effect / trypan blue	ROD	CEM + CEM TK-	25 µM
CCCCC(=O)Oc1ccc(COP(=O)(Oc2ccc(OC(=O)CCC(=O)OCCOCCOCCOC)cc2)OP(=O)(O)OP(=O)(O)OC[C@@H]2C=C[C@H](n3cc(C)c(=O)[nH]c3=O)O2)cc1	syncytia / visual reading	ROD	CEM	0.76 µM
COC(=O)[C@H](C)NP(=O)(OC[C@@H]1C=C[C@H](n2cc(C)c(=O)[nH]c2=O)O1)Oc1ccccc1	cytopathic effect / trypan blue	ROD	CEM + CEM TK-	0.075 µM
CCCCCCCCCCCCCCCC(=O)Oc1ccc(COP(=O)(OCc2ccc(OC(=O)CCCCCCCCCCCCCCC)cc2)OP(=O)(O)OC[C@@H]2C=C[C@H](n3cc(C)c(=O)[nH]c3=O)O2)cc1	syncytia / microscopy	ROD	CEM	1.7 µM
CC#CCN1c2ccccc2C(=O)N(Cc2ccccc2)S1(=O)=O	p24	ROD	MT-4	>68 µM
Cc1cn([C@H]2C[C@@H](OCP(=O)(O)O)CO2)c(=O)[nH]c1=O	MTT / absorbance	ROD	MT-4	23.55 µM
Cc1nc(NC(=O)NCCc2ccccc2)sc1C	RT activity	-	MT-4	<1 µg/mL
CCCCCCCCCCCCCCC(=O)Oc1ccc(COP(=O)(Oc2ccc(OC(=O)CCC(=O)OCCOCCOCCOC)cc2)OP(=O)(O)OP(=O)(O)OC[C@@H]2C=C[C@H](n3cc(C)c(=O)[nH]c3=O)O2)cc1	syncytia / visual reading	ROD	CEM	0.43 µM
O=C(CCC(CCC(=O)NCCc1c[nH]c2ccccc12)(CCC(=O)NCCc1c[nH]c2ccccc12)NC(=O)CCOCC(COCCC(=O)NC(CCC(=O)NCCc1c[nH]c2ccccc12)(CCC(=O)NCCc1c[nH]c2ccccc12)CCC(=O)NCCc1c[nH]c2ccccc12)(COCCC(=O)NC(CCC(=O)NCCc1c[nH]c2ccccc12)(CCC(=O)NCCc1c[nH]c2ccccc12)CCC(=O)NCCc1c[nH]c2ccccc12)COCCC(=O)NC(CCC(=O)NCCc1c[nH]c2ccccc12)(CCC(=O)NCCc1c[nH]c2ccccc12)CCC(=O)NCCc1c[nH]c2ccccc12)NCCc1c[nH]c2ccccc12	MTS	ROD	CD4+ T-cell	77 µM
Cc1cn([C@H]2C[C@H](F)[C@@H](CO)O2)c(=O)n(C)c1=O	microscopy	ROD	CEM	>400 µg/mL
O=C(NCCc1ccccc1)Nc1nc2ccc(Cl)cc2s1	RT activity	-	MT-4	<1 µg/mL
C=CCO[C@]12CS(=O)(=O)O[C@@]13[C@@H](CN2)O[C@@H](n1cc(C)c(=O)[nH]c1=O)[C@@H]3O[Si](C)(C)C(C)(C)C	-	ROD	MT-4	>10 µM
O=C1c2ccccc2N(CC2CCCCC2)S(=O)(=O)N1Cc1ccccc1	p24	ROD	MT-4	>125 µM
Cc1cn([C@@H]2O[C@@H]3CN[C@@]4(OCc5ccccc5)CS(=O)(=O)O[C@@]34[C@H]2O[Si](C)(C)C(C)(C)C)c(=O)[nH]c1=O	-	ROD	CEM	>10 µM
CCCOC(=O)[C@H](Cc1ccccc1)NP(=O)(CO[C@H]1CO[C@@H](n2cnc3c(N)nc(N)nc32)C1)N[C@@H](Cc1ccccc1)C(=O)OCCC	MTT / absorbance	ROD	MT-4	0.03 µM
CCCCCCCCCCCCCCC(=O)Oc1ccc(OP(=O)(OCc2ccc(OC(=O)CC)cc2)OP(=O)(O)OP(=O)(O)OC[C@@H]2C=C[C@H](n3cc(C)c(=O)[nH]c3=O)O2)cc1	syncytia / visual reading	ROD	CEM	0.39 µM
CCCOC(=O)[C@H](Cc1ccccc1)NP(=O)(CO[C@H]1CO[C@@H](n2cc(F)c(=O)[nH]c2=O)C1)N[C@@H](Cc1ccccc1)C(=O)OCCC	MTT / absorbance	ROD	MT-4	>64 µM
CN1C(=O)[C@@H](Cc2ccccc2)NC1=S	cytopathic effect / XTT	-	MT-4	<10 µg/mL
CCCCCCCCCC(=O)Oc1ccc(COP(=O)(OCCC#N)OP(=O)(O)OC[C@@H]2C=C[C@H](n3cc(C)c(=O)[nH]c3=O)O2)cc1	syncytia / microscopy	ROD	CEM/TK-	2.8 µM
O=C1c2ccccc2N(Cc2ccccc2-c2ccccc2)S(=O)(=O)N1Cc1ccccc1	p24	ROD	CEM + CEM-SS	18 µM
CO[C@]12CS(=O)(=O)O[C@@]13[C@@H](CN2)O[C@@H](n1cc(C)c(=O)[nH]c1=O)[C@@H]3O	-	ROD	CEM	>250 µM
O=C1c2ccccc2N(Cc2cccc3ccccc23)S(=O)(=O)N1Cc1ccccc1	p24	ROD	CEM + CEM-SS	>10 µM
C#CCOCN1C=CC(=O)NS1(=O)=O	cytopathic effect / MTT	-	MT-4	>400 µg/mL
CCCCCCC(=O)Oc1ccc(COP(=O)(OCc2ccc(OC(=O)CCCCCC)cc2)OP(=O)(O)OC[C@@H]2C=C[C@H](n3cc(C)c(=O)[nH]c3=O)O2)cc1	syncytia / microscopy	ROD	CEM/TK-	1.2 µM
NC1=NS(=O)(=O)N(COCc2ccccc2)C=C1	cytopathic effect / MTT	-	MT-4	>400 µg/mL
O=C(NCCc1ccccc1)Nc1nc2ccc(F)cc2s1	cytopathic effect / XTT	-	MT-4	<100 µg/mL
Cc1cn([C@@H]2O[C@@H]3CN[C@@]4(OCCO)CS(=O)(=O)O[C@@]34[C@H]2O)c(=O)[nH]c1=O	-	ROD	CEM	>250 µM
Cc1cn([C@@H]2O[C@H](CO)[C@@H](O)[C@@H]2O)c(=O)n(CCF)c1=O	microscopy	ROD	CEM	>400 µg/mL

A second listing of 5 rows from above:

compound	method	strain	cells	result
O=C1c2ccccc2N(Cc2ccccc2-c2ccccc2)S(=O)(=O)N1Cc1ccccc1	p24	ROD	CEM + CEM-SS	18 µM
CN1C(=O)[C@@H](Cc2ccccc2)NC1=S	cytopathic effect / XTT	-	MT-4	<10 µg/mL
Cc1cn([C@H]2C[C@@H](OCP(=O)(O)O)CO2)c(=O)[nH]c1=O	MTT / absorbance	ROD	MT-4	23.55 µM
CO[C@]12CS(=O)(=O)O[C@@]13[C@@H](CN2)O[C@@H](n1cc(C)c(=O)[nH]c1=O)[C@@H]3O	-	ROD	CEM	>250 µM
CCCCC(=O)Oc1ccc(COP(=O)(Oc2ccc(OC(=O)CCC(=O)OCCOCCOCCOC)cc2)OP(=O)(O)OP(=O)(O)OC[C@@H]2C=C[C@H](n3cc(C)c(=O)[nH]c3=O)O2)cc1	syncytia / visual reading	ROD	CEM	0.76 µM